Target: H1N1 NA (Influenza A virus (H1N1), UniProt C3W5S3)
Type: biochemical

Q: With Oseltamivir [OTV, reference compound] as the substance, how does the “ΔGbind (estimated experimental)” value read?
A: -18.25 kcal/mol

Reference: article PMC5171792 (Scientific Reports, 2016)
